Measured values reported in paper PMC10222858 (Marine Drugs, 2023).

Sequences of proteins named here, by UniProt entry; tags and fusion partners are left off.
UniProt P04757, whole entry, looked up: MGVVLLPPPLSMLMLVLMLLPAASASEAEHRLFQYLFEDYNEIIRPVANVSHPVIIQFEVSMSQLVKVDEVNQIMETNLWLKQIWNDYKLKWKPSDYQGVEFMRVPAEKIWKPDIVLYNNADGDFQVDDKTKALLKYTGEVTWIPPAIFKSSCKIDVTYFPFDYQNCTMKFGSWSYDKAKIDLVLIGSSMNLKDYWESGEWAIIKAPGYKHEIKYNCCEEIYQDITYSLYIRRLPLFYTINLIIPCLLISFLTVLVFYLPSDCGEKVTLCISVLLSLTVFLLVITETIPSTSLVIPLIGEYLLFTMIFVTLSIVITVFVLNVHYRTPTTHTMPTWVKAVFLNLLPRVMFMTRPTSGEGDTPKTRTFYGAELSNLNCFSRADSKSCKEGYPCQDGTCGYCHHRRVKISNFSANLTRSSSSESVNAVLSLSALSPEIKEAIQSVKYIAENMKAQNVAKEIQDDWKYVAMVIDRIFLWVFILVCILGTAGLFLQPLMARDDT
UniProt P12392, whole entry, looked up: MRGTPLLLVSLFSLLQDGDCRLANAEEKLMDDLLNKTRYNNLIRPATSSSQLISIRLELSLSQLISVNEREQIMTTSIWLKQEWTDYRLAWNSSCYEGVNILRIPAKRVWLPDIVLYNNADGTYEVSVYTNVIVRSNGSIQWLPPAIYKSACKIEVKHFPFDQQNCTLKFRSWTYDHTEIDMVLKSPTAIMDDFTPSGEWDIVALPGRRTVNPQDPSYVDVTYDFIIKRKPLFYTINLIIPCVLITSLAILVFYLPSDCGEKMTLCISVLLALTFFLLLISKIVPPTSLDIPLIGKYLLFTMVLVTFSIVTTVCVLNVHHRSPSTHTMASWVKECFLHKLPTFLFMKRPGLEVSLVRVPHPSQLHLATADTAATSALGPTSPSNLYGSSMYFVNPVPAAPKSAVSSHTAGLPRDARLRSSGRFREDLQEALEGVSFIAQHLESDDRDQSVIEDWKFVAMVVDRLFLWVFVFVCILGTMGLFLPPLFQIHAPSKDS
UniProt P43143, whole entry, looked up: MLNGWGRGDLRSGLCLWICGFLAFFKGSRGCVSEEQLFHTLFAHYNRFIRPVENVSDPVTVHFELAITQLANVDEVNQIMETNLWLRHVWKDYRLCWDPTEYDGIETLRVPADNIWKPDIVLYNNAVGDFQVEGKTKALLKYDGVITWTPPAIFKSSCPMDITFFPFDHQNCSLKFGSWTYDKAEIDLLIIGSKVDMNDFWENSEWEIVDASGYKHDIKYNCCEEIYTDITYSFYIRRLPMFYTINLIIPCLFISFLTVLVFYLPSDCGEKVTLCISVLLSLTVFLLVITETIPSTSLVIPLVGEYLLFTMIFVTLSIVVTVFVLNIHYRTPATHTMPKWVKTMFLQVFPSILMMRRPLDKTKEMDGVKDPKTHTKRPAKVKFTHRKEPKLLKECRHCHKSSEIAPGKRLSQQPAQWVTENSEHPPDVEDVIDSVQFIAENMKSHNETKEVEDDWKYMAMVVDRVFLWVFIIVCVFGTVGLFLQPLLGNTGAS

Target: rα6/α3β4 nAChRs (Rattus norvegicus, UniProt P04757+P12392+P43143)
Experiment: Two-electrode voltage clamp on Xenopus oocytes expressing rα6/α3β4 nAChRs
Type: cell-based
Details: oocyte voltage clamp, 100 μM ACh, compared with WT-TxID

| SMILES | inhibition of rα6/α3β4 nAChRs in words |
| --- | --- |
| CC[C@H](C)[C@@H]1NC(=O)[C@@H]2CCCN2C(=O)[C@H](CO)NC(=O)[C@H](C)NC(=O)[C@H](CO)NC(=O)[C@@H]2CSSC[C@H](NC(=O)CN)C(=O)N[C@@H](CSSC[C@@H](C(N)=O)NC1=O)C(=O)N[C@@H](CO)C(=O)N[C@@H](Cc1c[nH]cn1)C(=O)N1CCC[C@H]1C(=O)N[C@@H](C(C)C)C(=O)N2 | no significant blocking effect |
| CC[C@H](C)[C@@H]1NC(=O)[C@@H]2CCCN2C(=O)[C@H](CCSC)NC(=O)[C@H](C)NC(=O)[C@H](CO)NC(=O)[C@@H]2CSSC[C@H](NC(=O)CN)C(=O)N[C@@H](CSSC[C@@H](C(N)=O)NC1=O)C(=O)N[C@@H](CO)C(=O)N[C@@H](Cc1c[nH]cn1)C(=O)N1CCC[C@H]1C(=O)N[C@@H](C(C)C)C(=O)N2 | no significant blocking effect |
